Literature values in US20240350385A1 (priority 2023, published 2024).

System: palmar hyperhidrosis
Conditions: injections, for three weeks to six months

In the case of onabotulinum toxin A, the sweat reduction is listed as 25-50%.
